Results: article PMC4802734 (Cell Chemical Biology, 2016)

Sequences of proteins named here, by UniProt entry; tags and fusion partners are left off. Residues count along the entry.
UniProt P22262, 7-237 limits assumed: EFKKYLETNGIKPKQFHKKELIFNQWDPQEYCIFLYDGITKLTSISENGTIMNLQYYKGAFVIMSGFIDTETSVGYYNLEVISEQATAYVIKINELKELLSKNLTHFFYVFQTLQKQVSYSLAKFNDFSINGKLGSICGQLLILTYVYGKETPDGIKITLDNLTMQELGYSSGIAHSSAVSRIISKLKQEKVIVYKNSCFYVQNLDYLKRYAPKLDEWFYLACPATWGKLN

Target: T1, PrfAWT (Listeria monocytogenes serovar 1/2a, UniProt P22262)
T1 construct: followed by residues Glu7-N237; vector-derived N-terminal tail […]; (left after thrombin cleavage; inferred from pET28a and Ni-NTA capture), removed by thrombin (N, cleaved yes); made in house; host or cells: E. coli BL21(DE3)
Assay: Isothermal titration calorimetry (ITC), binding to purified PrfAWT
Conditions: determined at 293 K

Row | Structure (SMILES) | Kd [µM] | ΔHA, enthalpy of association [kcal/mol] | ΔSA, entropy of association [cal/mol·K]
1 | Cc1ccc(Cc2cc(=O)n3c(c2C2CC2)SC[C@H]3C(=O)O)c2ccccc12 [compound 2] | 6.7 | -6.5 | 2.8
2 | O=C(O)[C@@H]1CSc2c(C3CC3)c(Cc3cnc4ccccc4c3)cc(=O)n21 [compound 3] | 1.6 | -8.4 ± 0.2 | −1.5 ± 0.9
